Where two headings read alike, the source gives them in different places.

Data set [1] is described as follows: DSC of DMPC LUVs with peptide. As to conditions: 2016 dataset.
A short description of data set [2]: Far-UV CD, percent helicity in buffer. It is filed as physicochemical. The following applies: CD [θ]222 nm, 40 μM peptide in buffer, method of Chen et al., 2016 dataset.
A short description of data set [3]: Far-UV CD, percent helicity with DMPC LUVs. It is filed as physicochemical. As to conditions: CD [θ]222 nm, 40 μM peptide + DMPC LUVs, 2016 dataset.
Data set [4] is described as follows: Far-UV CD, percent helicity with 2:1 DMPC:DMPG LUVs. It is filed as physicochemical. The following applies: CD [θ]222 nm, 40 μM peptide + 2:1 DMPC:DMPG LUVs, 2016 dataset.
Data set [5] is described as follows: PCA2 and hierarchical clustering of DSC data. The following applies: cluster membership from HCA of first five principal components of PCA2 (DSC data). Also noted: key: Cluster 1 is composed by molecules with no significant interaction with the evaluated model membranes; Cluster 2 peptides present no detectable interaction with DMPC LUVs but disturb the main phase transition of 2:1 DMPC:DMPG LUVs; Cluster 3: Clusters 3 and 4 are populated by IAPs and AMPs that alter the main phase transition DMPC and 2:1 DMPC:DMPG LUVs and present significant and broad antimicrobial activity; Cluster 4: Clusters 3 and 4 are populated by IAPs and AMPs that alter the main phase transition DMPC and 2:1 DMPC:DMPG LUVs and present significant and broad antimicrobial activity; Cluster 5: The peptide cluster 5 is composed solely of AMPs.

Details of data set [6]: method as in earlier work. The following applies: CD [θ]222 nm, 2012 dataset; cited from earlier work.
On the set-up of data set [7]: method as in earlier work. As to conditions: CD [θ]222 nm, DMPC LUVs, 2012 dataset; cited from earlier work.
Details of data set [8]: method as in earlier work. As to conditions: CD [θ]222 nm, 2:1 DMPC:DMPG LUVs, 2012 dataset; cited from earlier work.

Turning to “GIGKFLHSAKKFGKAFVGEIMNS [Mag-2a, Magainin-2a, reference compound]”, the “Tm_broad_pc, transition temperature of broad component” value in data set [1] (0.5 mM DMPC LUVs + 20 μM peptide (4 mol%), pH 7.4, P′β→Lα transition, non-two state fit) was found to be 23.58 °C. Also, in data set [1] (DMPC LUVs + 4 mol% peptide), the “H_broad_pc, transition enthalpy of broad component” value is 2759 kcal/mol; the “H_sharp_pc, transition enthalpy of sharp component” value came out at 2773 kcal/mol; the “Hv_broad_pc, van´t Hoff transition enthalpy of broad component” value is 191700 kcal/mol; the “Hv_sharp_pc, van´t Hoff transition enthalpy of sharp component” value came to 555900 kcal/mol. The “Tm_sharp_pc, transition temperature of sharp component” value in data set [1] (DMPC LUVs + 4 mol% peptide) came to 23.93 °C. Further, in data set [2], the “% Helicity (Buffer)” value is given as 7.5%. For the same sequence, the “% Helicity 0.01 peptide/DMPC (mol/mol)” value in data set [3] is reported as 1.8%. Moreover, the “% Helicity 0.01 peptide/(2:1 DMPC/DMPG) (mol/mol)” value in data set [4] stood at 47.6%. The Cluster result in data set [5] was “Cluster 3”. The “% Helicity (Buffer)” value in data set [6] was 2.3%. Moreover, in data set [7], the “% Helicity 0.01 peptide/DMPC (mol/mol)” value is listed as 3.3%. Besides, the “% Helicity 0.01 peptide/(2:1 DMPC/DMPG) (mol/mol)” value in data set [8] was 38.5%.

(Values after paper PMC5775428, “Towards an experimental classification system for membrane active peptides” (Scientific Reports, 2018).)
